The results in this text go back to ChEMBL document CHEMBL1155284, “Synthesis and antibacterial activity of some new thiadiaza/triazaphospholes, thiadiaza/triaza/tetrazaphosphinines and thiadiaza/tetrazaphosphepines containing 1,2,4-triazinone moiety” (Eur J Med Chem, 2009).

Usually MIC stands for the least concentration at which growth counts as inhibited. A high value points to a need for much substance.

≈ marks a conversion by molar mass, not a printed value.

Experiment [1] deals with Staphylococcus epidermidis. Put plainly: Antimicrobial activity against Staphylococcus epidermidis MTCCB 1824 after 24 hrs by tube dilution technique.
The test system of experiment [2] is Staphylococcus aureus. In words: Antimicrobial activity against Staphylococcus aureus MTCCB 737 after 24 hrs by tube dilution technique.
Experiment [3] has as its system Escherichia coli. In words: Antimicrobial activity against Escherichia coli MTCCB 1652 at 100 ug/mL after 16 to 20 hrs by disk diffusion method.
Experiment [4] concerns Pseudomonas aeruginosa. Put plainly: Antimicrobial activity against Pseudomonas aeruginosa ATCC 27853 at 100 ug/mL after 16 to 20 hrs by disk diffusion method. On the technique in general: In agar diffusion tests the substance spreads into inoculated agar from a disc or well.
Experiment [5] concerns Pseudomonas aeruginosa. Put plainly: Antimicrobial activity against Pseudomonas aeruginosa ATCC 27853 after 24 hrs by tube dilution technique.
The test system of experiment [6] is Staphylococcus epidermidis. In words: Antimicrobial activity against Staphylococcus epidermidis MTCCB 1824 at 100 ug/mL after 16 to 20 hrs by disk diffusion method.
Experiment [7] has as its system Staphylococcus aureus. In words: Antimicrobial activity against Staphylococcus aureus MTCCB 737 at 100 ug/mL after 16 to 20 hrs by disk diffusion method.
For experiment [8], the system named is Escherichia coli. In words: Antimicrobial activity against Escherichia coli MTCCB 1652 after 24 hrs by tube dilution technique.

`C/C=N/N1c2nnc(C)c(=O)n2NP1(=O)c1ccccc1` (centres undefined): the MIC came to 50 µg/mL (≈ 164 µM) in experiment [1], 25 µg/mL (≈ 82.2 µM) in experiment [2], 50 µg/mL (≈ 164 µM) in experiment [5] and 50 µg/mL (≈ 164 µM) in experiment [8]. The diameter of the inhibition zone (DIZ) is 14 mm in experiment [3], 16 mm in experiment [4], 17 mm in experiment [6] and 20 mm in experiment [7].
Take `CCOP1(=O)C(C)NN=C2N(N)C(=O)C(C)=NN21` (centres undefined): the MIC in experiment [1] came out at 6.25 µg/mL (≈ 22.8 µM); in experiment [2] it was 6.25 µg/mL (≈ 22.8 µM); in experiment [5], 6.25 µg/mL (≈ 22.8 µM); in experiment [8] it was 12.5 µg/mL (≈ 45.6 µM). For the same compound, the diameter of the inhibition zone (DIZ) in experiment [3] was determined as 21 mm; in experiment [4] it was 28 mm; in experiment [6] it was 23 mm; in experiment [7] it was 25 mm.
As to `CCOP1(=O)Nc2nnc(C)c(=O)n2NC1C` (centres undefined), the MIC in experiment [1], in experiment [2], in experiment [5] and in experiment [8] was 6.25 µg/mL (≈ 24.1 µM) throughout. The diameter of the inhibition zone (DIZ) stood at 25 mm in experiment [3], 29 mm in experiment [4], 24 mm in experiment [6] and 27 mm in experiment [7].
